Compound potency records, mixed from different reports. Data source: NIAID ChemDB in PubChem.

Common to all: tests in culture; agent: HIV-1; measure: EC50

Blank or dashed fields: not listed here. ECn: concentration that inhibits the pathogen or its effect by n%. Lines come from different laboratories, so protocols vary.

COc1ccc(CN[C@@H](C(=O)N[C@H](C(=O)NCc2nc3ccccc3[nH]2)C(C)C)[C@H](O)[C@H](Cc2ccccc2)NC(=O)[C@@H](NC(=O)OCc2ccccc2)C(C)(C)C)cc1 ; strain: SF162 ; cell line: Monocytes + Monocyte ; read by: p24 ; conditions: clinical isolate ; result: 0.018 µM
COc1ccc(NC(=O)CSc2nnnn2-c2c(C)cc(C)cc2C)cc1Cl ; strain: NL4.3-XCS ; changes: K103N (NVP) ; cell line: HeLa CD4 ; read by: β-galactosidase ; result: 1.043 µM
CCCCCCCCCCCCCC(=O)OC[C@@H](COP(=O)(O)OC[C@@H]1CC[C@H](n2cc(C)c(=O)[nH]c2=O)O1)OC(=O)CCCCCCCCCCCCC ; cell line: HeLa + HELA CD4+ ; read by: plaque count ; result: 25 µM
Cc1cn([C@H]2C[C@H](N=[N+]=[N-])[C@@H](CO)O2)c(=O)[nH]c1=O ; strain: DAS ; cell line: Monocytes/macrophages ; result: 0.005 µM
Cc1ccnc2c1NC(=O)c1cccnc1N2C1CC1 ; strain: RTMN(181 184) (RT M41L Y181C M184V T215Y) ; changes: RT-M41L Y181C M184V T215Y ; cell line: HT4 + HT4 LacZ-1 ; read by: plaque count ; result: 7.9 µM
Nc1ncnc2c1ncn2CCOCP(=O)(O)O ; strain: RF ; changes: RT-K65R ; cell line: C8166 ; read by: p24 ; result: 4 µM
CCCc1cc(=O)oc2c3c(c4c(c12)OC(C)(C)C=C4)O[C@@H](C)[C@H](C)[C@@H]3O ; strain: 3TC-resistant (RT M184V) ; changes: RT-M184V ; cell line: CEM + CEM-SS ; read by: cytopathic effect / XTT ; result: 1.3 µM
Nc1ccn([C@@H]2CO[C@H](CO)S2)c(=O)n1 ; strain: RF ; changes: Saquinavir-resistant (PR G48V L90M) ; cell line: C8166 ; read by: p24 ; result: 6.5 µM
CCCc1cc(=O)oc2c3c(c4c(c12)OC(C)(C)C=C4)O[C@H](C)[C@@H](C)[C@@H]3O ; strain: Oxathiin carboxanilide-resistant RT L100I ; changes: RT-L100I ; cell line: CEM + CEM-SS ; read by: XTT ; result: >27 µM
CCCC[C@@H]1c2cc(CNC)ccc2[C@H](NC(=O)C(=O)Nc2ccc(Cl)c(F)c2)[C@H]1CN=C(N)N ; cell line: Cf2Th-CD4/CCR5 ; read by: luciferase / entry ; result: >100 µM
CC(C)(O)c1ccc(CN2C(=O)N(Cc3ccc(C(C)(C)O)cc3)[C@H](Cc3ccccc3)[C@H](O)[C@@H](O)[C@H]2Cc2ccccc2)cc1 ; strain: RF ; cell line: MT-2/MT-4 + MT-2 ; result: <8.04 µM
Nc1nc(=O)n([C@@H]2CS[C@H](CO)O2)cc1F ; strain: LAV-1 ; cell line: CEM(TK-) + CEM TK- ; read by: cytopathic effect ; conditions: 14 d ; result: 0.49 µM
Cc1ccnc2c1NC(=O)c1cccnc1N2C1CC1 ; strain: NL4-3 ; changes: +Vpx ; cell line: MDM ; result: 0.361 µM
Cc1cn([C@H]2C[C@H](N=[N+]=[N-])[C@@H](CO)O2)c(=O)[nH]c1=O ; strain: IIIB ; cell line: CEMx174 + CEM ; read by: XTT ; result: 0.03 µM
O=S1(=O)CCCCS1 ; strain: RF ; cell line: PBLC ; read by: p24 ; result: >100 µM
c1cc(CN2CCCNCCNCCCNCC2)ccc1CN1CCCNCCNCCCNCC1 ; strain: HE R5X4 ; cell line: U87 (CD4+ CXCR4+) + U87 ; read by: p24 ; result: <0.1 µM
CC(C)(O)c1cccc(CN2C(=O)N(Cc3cccc(C(C)(C)O)c3)[C@H](Cc3ccccc3)[C@H](O)[C@@H](O)[C@H]2Cc2ccccc2)c1 ; strain: RF ; cell line: MT-2/MT-4 + MT-2 ; result: <0.0337 µM
NCCCCN(C[C@H]1Cc2ccccc2CN1CC(=O)N1CCOCC1)[C@H]1CCCc2cccnc21 ; strain: IIIB ; cell line: MAGI-CCR5 ; read by: MTS ; result: 0.08 µM
Cc1cn([C@H]2C[C@H](N=[N+]=[N-])[C@@H](CO)O2)c(=O)[nH]c1=O ; strain: NL4.3-XCS ; changes: K103N (NVP) ; cell line: HeLa CD4 ; read by: β-galactosidase ; result: 0.063 µM
N#Cc1ccc(-c2cncc3sc(C(N)=O)cc23)cc1F ; cell line: U1 ; read by: p24 / ELISA ; result: 0.108 µM
Cc1cn([C@H]2C=C[C@@H](CO)O2)c(=O)[nH]c1=O ; strain: NL4-3 ; cell line: Jurkat cells ; result: 5 µM
Cc1cn([C@H]2C[C@H](N=[N+]=[N-])[C@@H](CO)O2)c(=O)[nH]c1=O ; strain: G780-1 Clinical isolate ZDV-resistant ; changes: RT-M41L D67N K70R T215F K219Q ; cell line: HT4 + HeLa ; read by: syncytia ; result: 1.8 µM
Cc1ccnc2c1NC(=O)c1cccnc1N2C1CC1 ; strain: TIBO R82150-resistant (RT A98G V108I) ; changes: RT-A98G V108I ; cell line: CEM + CEM-SS ; read by: cytopathic effect / XTT ; result: 0.6 µM
CC(=O)c1ccc(C)cc1NC(C(N)=O)c1c(Cl)cccc1Cl ; strain: IIIB ; changes: RT-V108I ; cell line: MAGI ; read by: MTT ; result: 1.4 µM
NCCCCN(C[C@H]1Cc2ccccc2CN1Cc1ccncc1)[C@H]1CCCc2cccnc21 ; strain: IIIB ; cell line: MAGI-CCR5 ; read by: MTS ; result: 0.06 µM
COCc1cc(C)nc2sc(C(N)=O)c(N)c12 ; cell line: U1 ; read by: p24 / ELISA ; result: <0.52 µM
Cc1c(C#N)cc(C(F)F)cc1Oc1c(C(F)(F)C(F)F)ncn(Cc2cc(F)c[nH]c2=O)c1=O ; changes: K103N ; read by: luminescence ; result: 0.0239 µM
O=c1[nH]cnc2c1ncn2[C@H]1CC[C@@H](CO)O1 ; strain: RTMN(184) (RT M41L M184V T215Y) ; changes: RT-M41L M184V T215Y ; cell line: HT4 + HT4 LacZ-1 ; read by: plaque count ; result: 4.9 µM
O=C1OCc2c1cc1cc(O)c(O)cc1c2-c1ccc(O)c(O)c1 ; strain: CONB/pNL43E-Luc+ ; cell line: U87 (CD4+ CCR5+) + U87 ; read by: luciferase ; result: 0.25 µg/mL
NC(=O)c1cc2c(-c3ccc4ccccc4c3)cncc2s1 ; cell line: U1 ; read by: p24 / ELISA ; result: 0.0089 µM
O=C(O)c1c(Br)c(Br)c(Br)c(Br)c1-c1c2ccc(=O)cc-2oc2cc(O)ccc12 ; strain: NL4-3 ; cell line: MAGI ; read by: β-galactosidase ; result: 41.7 µM
O=C1O[C@H]2[C@@H]3OC(=O)c4cc(O)c(O)c(O)c4-c4c(cc(O)c(O)c4O)C(=O)OC[C@H]2O[C@@H](OC(=O)c2cc(O)c(O)c(O)c2)[C@@H]3OC(=O)c2cc(O)c(O)c3c2[C@@H]2C1=CC(=O)[C@](O)(O3)C2(O)O ; strain: NRTI resistant (RT M184V) ARP145 ; changes: RT-M184V ; cell line: MAGI ; result: 0.95 µg/mL
NC(=O)c1cc2c(-c3cccc(-c4ccccc4)c3)cncc2s1 ; cell line: U1 ; read by: p24 / ELISA ; result: 0.368 µM
CSC[C@H](NC(=O)COc1cccc2cnccc12)C(=O)N[C@@H](Cc1ccccc1)[C@H](O)C(=O)N1CSC(C)(C)[C@H]1C(=O)NC(C)(C)C ; strain: AZT-insensitive ; cell line: PBMC(PHA STIM.) + PBMC ; read by: p24 ; result: 0.01 µM
CN(C)c1ccnc2sc(C(N)=O)c(N)c12 ; cell line: 293T ; read by: p24 / ELISA ; result: 0.53 µM
CC(C)NCCCCN(C[C@H]1Cc2ccccc2CN1)[C@H]1CCCc2cccnc21 ; strain: IIIB ; cell line: MAGI-CCR5 ; read by: MTS ; result: 0.04 µM
CN(C)c1cncc2sc(C(N)=O)c(N)c12 ; cell line: U1 ; read by: p24 / ELISA ; result: 0.45 µM
Cc1cccc(C)c1OCC(=O)N[C@@H](Cc1ccccc1)[C@@H](O)C[C@H](Cc1ccccc1)NC(=O)[C@H](C(C)C)N1CCCNC1=O ; strain: NL4-3 ; cell line: HEK 293 + 293T ; read by: luciferase ; result: 0.007 µM
CC(C)=CCN1Cc2cc(Cl)cc3[nH]c(=S)n(c23)C[C@@H]1C ; strain: 205 ; cell line: CEM + CEM-SS ; read by: cytopathic effect / MTT ; result: 0.205 µM
N#CC1C=Cc2ccccc2C1C(=O)/C=C/c1ccccc1 ; strain: NL4.3-XCS ; changes: M184V (3TC-resistant) ; cell line: HeLa CD4 ; read by: β-galactosidase ; result: 0.138 µM
C/C=C/CSc1cc(NC(=S)c2ccsc2C)ccc1Cl ; strain: Dihydrocostatolide-resistant (RT-L100I) ; changes: RT-L100I ; cell line: CEM + CEM-SS ; read by: cytopathic effect / XTT ; result: 1 µM
NCCCCN(C[C@H]1Cc2ccccc2CN1Cc1ccccn1)[C@H]1CCCc2cccnc21 ; strain: IIIB ; cell line: MAGI-CCR5 ; read by: MTS ; result: 0.06 µM
Cc1nnc(C(=O)NC(C)(C)c2nc(C(=O)NCc3ccc(F)cc3)c(O)c(=O)n2C)o1 ; strain: NL4-3 ; changes: +Vpx ; cell line: Primary T lymphocytes ; result: 0.015 µM
NC(=O)c1sc2cncc(N3CCC4(CC3)OCCO4)c2c1N ; cell line: U1 ; read by: p24 / ELISA ; result: 0.173 µM
NC(=O)NCCCCN(C[C@H]1Cc2ccccc2CN1)[C@H]1CCCc2cccnc21 ; strain: IIIB ; cell line: MAGI-CCR5 ; read by: MTS ; result: 0.21 µM
Cc1c(Sc2ccccc2)n(COCCO)c(=O)[nH]c1=O ; strain: IIIB ; cell line: PBL(DAY 16) + PBL ; read by: p24 ; result: 2.2 µM
c1cc(CN2CCCNCCNCCCNCC2)ccc1CN1CCCNCCNCCCNCC1 ; strain: A018A ; cell line: MAGI + MAGI-CCR5 ; read by: β-galactosidase ; result: 0.049 µM
CC(C)N1Cc2ccccc2C[C@@H]1CN(CCCCN)[C@H]1CCCc2cccnc21 ; strain: IIIB ; cell line: MAGI-CCR5 ; read by: MTS ; result: 0.02 µM
O=c1[nH]cnc2c1ncn2[C@H]1CC[C@@H](CO)O1 ; strain: HXB2 ; cell line: HELA/CD4 + HELA CD4+ ; read by: plaque count ; result: 3.18 µM
Cc1ccnc2c1NC(=O)c1cccnc1N2C1CC1 ; strain: CLADE C ; cell line: PBMC ; read by: cytopathic effect / XTT ; conditions: clinical isolate ; result: 0.05 µM
Cc1ccnc2c1NC(=O)c1cccnc1N2C1CC1 ; strain: NL4-3 ; changes: WT ; cell line: HeLa CD4 ; read by: β-galactosidase ; result: 0.028 µM
CC(=O)O[C@@]12C[C@@H](C)[C@@]3(O)[C@@H](C=C(CO)C[C@]4(O)C(=O)C(C)=C[C@@H]34)[C@@H]1C2(C)C ; strain: NL4-3 ; changes: Vif-deficient ; cell line: C8166 ; read by: p24 / ELISA ; result: >10 µM
COC(=O)[C@H](C)NP(=O)(OC[C@@H]1C=C[C@H](n2cc(C)c(=O)[nH]c2=O)O1)Oc1ccc(Br)cc1 ; strain: C140 Clinical isolate ZDV-resistant ; changes: RT-M42L M184V T215Y ; cell line: PBMC ; read by: p24 ; result: 0.0025 µM
NCCCCN(C[C@H]1Cc2ccccc2CN1Cc1cccnc1)[C@H]1CCCc2cccnc21 ; strain: IIIB ; cell line: MAGI-CCR5 ; read by: MTS ; result: 0.07 µM
Nc1ccn([C@H]2CC[C@@H](CO)O2)c(=O)n1 ; strain: NL4-3 ; changes: +Vpx ; cell line: MDM ; result: 0.042 µM
Cc1ccnc2c1NC(=O)c1cccnc1N2C1CC1 ; strain: NNRTI-resistant (RT Y188L) ; changes: RT-Y188L ; cell line: MAGI ; read by: β-galactosidase ; result: >10 µM
Cc1cn([C@H]2C[C@H](N=[N+]=[N-])[C@@H](CO)O2)c(=O)[nH]c1=O ; strain: HXB2 ; changes: RT-M184I ; cell line: HELA/CD4 + HELA CD4+ ; read by: plaque count ; result: 0.001 µM

A second listing of 3 rows from above:

smiles,strain,changes,cell line,read by,conditions,result
CCCC[C@@H]1c2cc(CNC)ccc2[C@H](NC(=O)C(=O)Nc2ccc(Cl)c(F)c2)[C@H]1CN=C(N)N,,,Cf2Th-CD4/CCR5,luciferase / entry,,>100 µM
CCCc1cc(=O)oc2c3c(c4c(c12)OC(C)(C)C=C4)O[C@@H](C)[C@H](C)[C@@H]3O,3TC-resistant (RT M184V),RT-M184V,CEM + CEM-SS,cytopathic effect / XTT,,1.3 µM
CN(C)c1ccnc2sc(C(N)=O)c(N)c12,,,293T,p24 / ELISA,,0.53 µM